Patent US12414935B2, “Compounds and methods for the treatment of parasitic diseases” (WASHINGTON UNIVERSITY, priority 2019, dated 2025)

Experiments:
C. parvum = C. parvum in vitro EC50 assay in ALI culture; assay type: cell-based; details: ratio of ALI EC50 (48 hr) to HCT8 EC50 (24 hr)
Experimental: In vitro assays measuring the EC50 value for C. parvum infection may be run to determine the efficacy of the compounds. For example, human ileocecal adenocarcinoma (HCT-8) cells can be obtained from ATCC and maintained in T-75 tissue culture flasks with RPMI 1640 medium with HEPES, sodium pyruvate (1 mM), and L-glutamine (ATCC) supplemented with 10% horse serum (ATCC) and 120 U/ml penicillin and 120 μg/ml streptomycin. Cells can be plated into 384-well, tissue culture-treated, black-walled, clearbottom microwell plates (BD Falcon) at a density of 8,850 cells/well and allowed to grow to confluence. The cells may then be inoculated with 5.5×10^3 primed C. parvum oocysts (Bunchgrass Farms, Deary, ID) suspended in inoculation medium (RPMI 1640 without horse serum). Oocysts may be primed for excystation by following a previously described protocol (J. Eukaryot. Microbiol. 46:56S-57S). Briefly, oocysts can be treated for 10 min with 10 mM HCl at 37° C., centrifuged, and treated with a 2 mM solution of sodium taurocholate (Sigma-Aldrich) in phosphate-buffered saline (PBS) with Ca^2+ and Mg^2+. The suspension can be incubated for 10 min at 16° C. and then diluted in inoculation medium and added to each well. Infected cells are incubated at 37° C. for 3 h, at which point an equal volume of growth medium containing 20% horse serum (total serum concentration of 10%) is produced. Compounds are diluted and assayed at fixed doses (e.g., 0.12, 0.37, 1.1, 3.3, and 10 μM, with each concentration, n=14) for the generation of EC50 curves. In the case of final EC50 curves, three wells are left uninfected but treated with each of the corresponding concentrations of the compound to assess for background staining. All curves are generated using the log[inhibitor] versus response variable slope equation in GraphPad Prism, with the bottom constraint set equal to 0.
Such assays were prepared on HTC-8 cells and ALI. Table 2 illustrates measured EC50 at various time points.
Briefly, i3T3 cells were plated in CM media. Spheroids were plated on the cells. […]

Cryptosporidium = details: cited from earlier work

SMILES | Fold change (ALI-EC50/HCT8-EC50) (C. parvum) | Efficacy against cryptosporidiosis in children (Cryptosporidium; children) | Efficacy against cryptosporidiosis in patients with AIDS (Cryptosporidium; patients with AIDS, versus placebo)
COc1ccc(NC(=O)N2CCCCN3[C@H](CN(C)S(C)(=O)=O)[C@H](c4ccc(C#Cc5ccccc5)cc4)[C@@H]3C2)cc1 [Compound 1, (8R,9R,10S)-N-(4-methoxyphenyl)-10-((N-methylmethylsulfonamido)methyl)-9-(4-(phenylethynyl)phenyl)-1,6-diazabicyclo[6.2.0]decane-6-carboxamide] | 2.5 | – | –
COc1ccc(NC(=O)N2CCCCN3[C@H](CN(C)C)[C@H](c4ccc(C#Cc5ccccc5)cc4)[C@@H]3C2)cc1 [Compound 2, (8R,9S,10S)-10-((dimethylamino)methyl)-N-(4-methoxyphenyl)-9-(4-(phenylethynyl)phenyl)-1,6-diazabicyclo[6.2.0]decane-6-carboxamide] | 3.4 | – | –
CC(=O)Oc1ccccc1C(=O)Nc1ncc([N+](=O)[O-])s1 [Nitazoxanide, reference compound] | 11.8 | partial efficacy | no more effective than placebo
